The values below come from US20070059799A1.

This experiment has as its target HLA-A*0201 (Human).

As for HBV ENV 244 peptide … (11-mer), the binding affinity ratio (IC50 of standard peptide / IC50 of test peptide) came out at 0.0002.
